Assay results from patent US7166435B2 (priority 2001, dated 2007).

System: influenza virus of the strain A/Sydney/5/97 (H3N2)
Test: In vivo testing of antimicrobial spray in influenza-infected ferrets
Set-up: species or system ferret
Settings: ferrets dosed five minutes before infection, then twice a day

CCOC(=O)C1=C[C@@H](OC(CC)CC)[C@H](NC(C)=O)[C@@H](N)C1 [Tamiflu ™, oseltamivir phosphate]
febrile illness: no febrile illness | inflammatory cell count: a reduction in inflammatory cell count rise | virus shedding: no virus shedding | weight loss: no weight loss
